Values quoted from earlier work in PMC10856564, “Metabolites from Streptomyces aureus (VTCC43181) and Their Inhibition of Mycobacterium tuberculosis ClpC1 Protein” (Molecules, 2024).

System: ClpC1
Conditions: cited from earlier work

Row | Substance | inhibition of ClpC1 through ATP hydrolysis function
1 | rufomycin | reported to inhibit ClpC1 through the effection of ATP hydrolysis function
2 | ecumicin | reported to inhibit ClpC1 through the effection of ATP hydrolysis function
